Values from PubChem BioAssay AID1259414 (Drosophila RNAi Screening Center, 2018).

- Assay: 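Fly genes that alter Wolbachia amount inside host cells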 (primary screen)
- System: Drosophila JW18 cells infected with Wolbachia
- Reagent: long dsRNA against Drosophila genes, 0.25 µg dsRNA per well of a 384-well plate
- Timing: 5 days
- Conditions: cells persistently infected with Wolbachia before knock-down; no added drug
- Measurement: 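Automated imaging of bacterial rRNA staining divided by host cell count, reported as plate-normalised robust z-score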
- Direction: Wolbachia per cell robust z: higher = more Wolbachia per host cell than the plate typical
- Active means: 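Hit when robust z is 1.5 or more, or -1.5 or less, in at least two of three replicates; excludes dsRNAs with several or no targets, genes not expressed in JW18 and well A1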
The deposit covers about 24,000 reagents; below is an unselected part of those that have a named target and a result. Of all reagents, about 1,210 (5%) are marked active. 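Inactive calls also include excluded dsRNAs with several or no targets, genes unexpressed in JW18, and well A1, regardless of score.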

no.	target	dsRNA	Wolbachia per cell robust z, rep 1	Wolbachia per cell robust z, rep 2	Wolbachia per cell robust z, rep 3	outcome
1	Thor (GeneID 33569)	DRSC00770	0.666	0.229	-0.57	inactive
2	Pgam5-2 (GeneID 37899)	DRSC04278	0.396	0.619	2.71	inactive
3	Pgam5-2 (GeneID 37899)	DRSC41370	-2.08	-0.47	1.08	inactive
4	Ide (GeneID 40248)	DRSC11867	-2.48	-0.341	-1.59	active
5	CG6565 (GeneID 34749)	DRSC02970	0.762	-1.16	1.41	inactive
6	Vha68-1 (GeneID 45668)	DRSC03470	-0.2	-2.07	0.0758	inactive
7	Vha68-1 (GeneID 45668)	DRSC40775	-0.726	0.406	-0.666	inactive
8	Ance-4 (GeneID 35909)	DRSC07104	2.46	1.21	0.591	inactive
9	CG18473 (GeneID 41116)	DRSC16381	1.05	-0.0749	1.31	inactive
10	phr (GeneID 35735)	DRSC07662	0.718	0.586	-0.254	inactive
11	PGRP-LC (GeneID 39063)	DRSC08980	0.772	1.73	0.675	inactive
12	PGRP-LC (GeneID 39063)	DRSC10416	-0.527	0.183	0.65	inactive
13	PGRP-LC (GeneID 39063)	DRSC10417	-4.41	0.701	1.04	inactive
14	PGRP-LC (GeneID 39063)	DRSC28556	1.16	1.74	1.67	inactive
15	Debcl (GeneID 53585)	DRSC04965	0.573	0.457	0.749	inactive
16	Debcl (GeneID 53585)	DRSC30010	1.23	-2.23	0.827	inactive
17	CG14125 (GeneID 39359)	DRSC10129	-2.82	-0.315	0.433	inactive
18	CG14852 (GeneID 41765)	DRSC14976	0.874	-0.34	0.83	inactive
19	CG14852 (GeneID 41765)	DRSC23844	2.72	-0.0234	1.21	inactive
20	kek2 (GeneID 34582)	DRSC03552	-3	0.44	-0.316	inactive
21	kek2 (GeneID 34582)	DRSC26189	-0.418	0.865	1.12	inactive
22	Evi5 (GeneID 32088)	DRSC19421	-0.146	-0.764	0.219	inactive
23	Evi5 (GeneID 32088)	DRSC27334	1.79	0.233	0.749	inactive
24	CG4291 (GeneID 33264)	DRSC00650	0.397	0.35	-0.334	inactive
25	CG4291 (GeneID 33264)	DRSC28410	0.921	-0.365	-0.363	inactive
26	Rab11 (GeneID 42501)	DRSC16809	0.813	0.697	0.832	inactive
27	Rab11 (GeneID 42501)	DRSC23620	0.161	-0.0393	1.33	inactive
28	Tbcb (GeneID 37244)	DRSC06067	0.231	0.945	0.0829	inactive
